According to PubChem BioAssay AID2234 (The Scripps Research Institute Molecular Screening Center, 2010):
The list shows a part of the results, in another mix than the full data. The source made the active and inactive calls. Rule as the data show it: active = inhibition above about 33%; inactive = the rest.

By UniProt entry, the sequences of proteins in these tests, tags left out. Where a name states a change or a piece, a line headed by the entry shows the natural chain unless it says otherwise.
UniProt P03206: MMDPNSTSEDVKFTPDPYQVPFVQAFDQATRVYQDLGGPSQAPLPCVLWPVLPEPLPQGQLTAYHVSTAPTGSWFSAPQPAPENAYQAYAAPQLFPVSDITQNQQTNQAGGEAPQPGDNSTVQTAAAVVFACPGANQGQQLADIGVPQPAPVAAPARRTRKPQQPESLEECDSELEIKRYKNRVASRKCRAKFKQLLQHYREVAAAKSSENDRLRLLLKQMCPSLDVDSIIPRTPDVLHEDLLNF

These compounds were tested against Lytic switch protein BZLF1 (Epstein-Barr virus (strain B95-8)) (UniProt P03206) (assay: Zta-DNA interaction blockers, Epstein-Barr virus – biochemical, fluorescence polarization, single concentration, counter-screen for EBNA-1 inhibitor project, primary screen (AID 2234)). Details: ZTA-DNA binding, at 11 µM, active compounds read high.
For `O=C(Nc1cc([As](=O)(O)O)ccc1O)c1ccccc1`, the inhibition was inactive: -2.28%. In the case of `CC(C)(C)C(=O)NC(Sc1ccncn1)C(Cl)(Cl)Cl` (configuration not stated), the inhibition is reported as inactive: 16.8%. In the case of `O=[N+]([O-])c1ncn(CCn2ncnc2[N+](=O)[O-])n1`, the inhibition is reported as inactive: 1.41%. `O=[N+]([O-])c1cccc(NC2=NCC(CBr)S2)c1` (configuration not stated) was tested, and the inhibition was inactive: 3.36%. In the case of `COc1ccc(C2=NCC(CBr)S2)cc1` (configuration not stated), the inhibition is reported as inactive: 2.52%. In the case of `O=[N+]([O-])c1cccc2n[nH]nc12`, the inhibition is reported as inactive: -11%. For `CC(=O)N1C2C3N(C(C)=O)C1C1N(C(C)=O)C(C(N1C(C)=O)N3C(C)=O)N2C(C)=O`, the inhibition was inactive: 9.63%. `CCc1nc2c(n1)c1c(non1O)c1c2no[n+]1[O-]` was tested, and the inhibition was inactive: 9.46%. For `O=[N+]([O-])c1cc([N+](=O)[O-])c(CCNc2ccccc2)c([N+](=O)[O-])c1`, the inhibition was inactive: -5.4%. `Cc1ccc(NP(=O)(Oc2ccccc2)Oc2ccccc2)nc1` was tested, and the inhibition was inactive: -9.61%. In the case of `C[N+]1=C2C=CC=CC=C2SC12C([N+](=O)[O-])=CC([N+](=O)[O-])=C[C-]2[N+](=O)[O-]` (configuration not stated), the inhibition is reported as inactive: 29.1%. In the case of `Nc1ccc([As](=O)(O)c2ccc(N)cc2)cc1`, the inhibition is reported as inactive: -14.8%. `CCN(/C(=N/P(=O)(N1CCOCC1)N1CCOCC1)N1CCOCC1)c1ccc(OC)cc1` was tested, and the inhibition was inactive: -16.3%. In the case of `CN(C)C(=O)OCCc1n(C)cc[n+]1C`, the inhibition is reported as inactive: 0.52%. In the case of `CC(C)=N/N=C(\N)N[N+](=O)[O-]`, the inhibition is reported as inactive: -9.14%. `CC1CCN(C(=O)Oc2c(Cl)cc(Cl)c3cccnc23)CC1` was tested, and the inhibition was inactive: -8.29%. With `NC(=O)c1cc([N+](=O)[O-])cc([N+](=O)[O-])c1N` the inhibition was inactive: 5.35%. For `Cc1ccc(N/C(=N/P(=O)(N2CCOCC2)N2CCOCC2)N2CCOCC2)cc1`, the inhibition was inactive: 8.28%. With `CN(C(=O)Cc1ccc(Cl)c(Cl)c1)[C@H]1CCCC[C@H]1N1CCCC1` the inhibition was inactive: -9.09%. For `Cc1ccc(OP(=O)(Nc2nccs2)Oc2ccc(C)cc2)cc1`, the inhibition was inactive: 3.43%. For `COc1ccccc1OP(=O)(Nc1ccc(C)cn1)Oc1ccccc1OC`, the inhibition was inactive: -1.66%. For `CN1CCCC(OC(=O)C(c2ccccc2)c2ccccc2)C1` (configuration not stated), the inhibition was inactive: 4.8%. `Clc1ccc(Cl)c(NC2=NCC(CBr)S2)c1` (configuration not stated) was tested, and the inhibition was inactive: 11.7%. For `Nc1cc(N)c2nonc2c1[N+](=O)[O-]`, the inhibition was inactive: 2.28%. In the case of `CC(C)CC(=O)NC(Sc1ccc(Cl)cc1)C(Cl)(Cl)Cl` (configuration not stated), the inhibition is reported as inactive: 1.75%. With `O=C(NC(Sc1ccncn1)C(Cl)(Cl)Cl)c1ccccc1` (configuration not stated) the inhibition was inactive: -6.21%. For `Cc1c2non([O-])c-2c(C)[n+](=O)[n+]1[O-]`, the inhibition was inactive: 11.3%. For `Oc1ccccc1CNc1ccccn1`, the inhibition was inactive: 12.2%. `CC(=O)Nc1ccc([As](=O)(O)O)cc1` was tested, and the inhibition was inactive: -4.85%. In the case of `O=C(O)c1ccccc1[As](=O)(O)O`, the inhibition is reported as inactive: -16.2%. `O=P(Nc1nc2ccc(Cl)cc2s1)(c1ccccc1)c1ccccc1` was tested, and the inhibition was inactive: -5.01%. For `Cc1ccc(NP(=O)(Oc2ccccc2F)Oc2ccccc2F)nc1`, the inhibition was inactive: 6.31%. `CN(C(=O)Cc1ccc(Cl)c(Cl)c1)[C@H]1CCCC[C@@H]1N1CCCC1` was tested, and the inhibition was inactive: -10.5%. `Cc1cc(SC(NC(=O)c2ccc(F)cc2)C(Cl)(Cl)Cl)ncn1` (configuration not stated) was tested, and the inhibition was inactive: 5.22%. In the case of `CCOP(=O)(Nc1ccccc1)OCC`, the inhibition is reported as inactive: 9.05%. `O=[N+]([O-])c1cc([N+](=O)[O-])c(CCN2CCOCC2)c([N+](=O)[O-])c1` was tested, and the inhibition was inactive: 4.45%. In the case of `CCN(N=Nc1nonc1N)c1nonc1N`, the inhibition is reported as inactive: -8.01%. `CCNC(=S)/N=C(\N)N[N+](=O)[O-]` was tested, and the inhibition was inactive: 8.87%. In the case of `O=C(NC1CCS(=O)(=O)C1)NP(=S)(Oc1ccccc1)Oc1ccccc1` (configuration not stated), the inhibition is reported as inactive: -1.19%. With `Cc1ccc(NP(=O)(Oc2cccc(C)c2)Oc2cccc(C)c2)nc1` the inhibition was inactive: 3.74%. `CCOC(=O)NC(Sc1ccccc1)C(Cl)(Cl)Cl` (configuration not stated) was tested, and the inhibition was inactive: 2%. In the case of `c1ccc(-c2nn[nH]n2)c(-c2nn[nH]n2)c1`, the inhibition is reported as inactive: -5.33%. In the case of `CC(=O)NC(SC(=S)N(CC(C)C)CC(C)C)C(Cl)(Cl)Cl` (configuration not stated), the inhibition is reported as inactive: -2.11%. For `Cc1ccc(OP(=O)(Nc2ccccn2)Oc2ccc(C)cc2)cc1`, the inhibition was inactive: 3.59%. `COC(=O)c1cc2c(s1)N=C(c1ccccc1)N(C)P2(=O)N1CCOCC1` (configuration not stated) was tested, and the inhibition was inactive: -7.82%. `CCC(=O)N1C2C3N(C(=O)CC)C1C1N(C(=O)CC)C(C(N1C(=O)CC)N3C(=O)CC)N2C(=O)CC` was tested, and the inhibition was inactive: 16.6%. `O=C(OC1CN2CCC1CC2)c1ccccc1` (configuration not stated) was tested, and the inhibition was inactive: -14.1%. With `CN(C)C(=O)Oc1noc2ccccc12` the inhibition was inactive: 4.97%. `Cc1ccccc1OP(=O)(Nc1ccccn1)Oc1ccccc1C` was tested, and the inhibition was inactive: -4.87%. `CCOc1ccc(C2=NCC(CBr)S2)cc1` (configuration not stated) was tested, and the inhibition was inactive: 14.2%. In the case of `O=P1(Nc2nc3ccc(Cl)cc3s2)COc2ccccc2O1` (configuration not stated), the inhibition is reported as inactive: -3.8%. For `CC(C)(C)C(=O)NC(Sc1ccccc1)C(Cl)(Cl)Cl` (configuration not stated), the inhibition was inactive: -18%. In the case of `CC(=O)c1ccc(N2CC2c2ccncc2)cc1` (configuration not stated), the inhibition is reported as inactive: -9.54%. With `C[C@H]1OP(=O)(Oc2ccccc2)C[C@@H]2O[C@@H]21` (some centres not stated) the inhibition was inactive: -8.51%. With `C[C@@H]1C=CCP(=O)(Oc2ccccc2)O1` (some centres not stated) the inhibition was inactive: 1.75%. With `Cc1ccccc1CN(C)C(=O)COC(=O)C(O)(c1ccccc1)c1ccccc1` the inhibition was inactive: -0.08%. With `CC(=O)Nc1ccc(Oc2c([N+](=O)[O-])cc([N+](=O)[O-])cc2[N+](=O)[O-])cc1` the inhibition was inactive: 3.64%. `CC(=O)Nc1ccc([As](=O)(O)O)c(O)c1` was tested, and the inhibition was inactive: -7.31%. With `CC(C)C(=O)NC(Sc1ccccc1)C(Cl)(Cl)Cl` (configuration not stated) the inhibition was inactive: -6.59%. `O=P(Nc1nccs1)(c1ccccc1)c1ccccc1` was tested, and the inhibition was inactive: 3.27%. `c1nnnn1CCn1cnnn1` was tested, and the inhibition was inactive: -1.35%. With `O=P(Nc1ccccn1)(c1ccc(Br)cc1)c1ccc(Br)cc1` the inhibition was inactive: 6.26%. In the case of `CN(C)C1(CNC(=O)c2ccc(Cl)c(S(N)(=O)=O)c2)CCCCC1`, the inhibition is reported as inactive: -13.1%. In the case of `C[C@H]1OP(=O)(Oc2ccccc2)[C@H](O)[C@H](O)[C@H]1N=[N+]=[N-]` (some centres not stated), the inhibition is reported as inactive: 7.14%. For `O=P(Nc1nc2ccccc2s1)(c1ccccc1)c1ccccc1`, the inhibition was inactive: 6.82%. For `O=[N+]([O-])c1ccc(O)c(/C=N/Nc2ccc([N+](=O)[O-])cc2[N+](=O)[O-])c1`, the inhibition was inactive: -6%. With `CC(=O)NC(SC(=S)N(C)C)C(Cl)(Cl)Cl` (configuration not stated) the inhibition was inactive: 3.36%. For `O=[N+]([O-])c1ncn(CCn2cnc([N+](=O)[O-])n2)n1`, the inhibition was inactive: -5.22%. With `O=[As](O)(c1ccccc1)c1ccc(O)cc1` the inhibition was inactive: -5.7%. `C(Cc1nn[nH]n1)Cc1nn[nH]n1` was tested, and the inhibition was inactive: -2.03%. In the case of `Nc1ccc([As](=O)(O)c2ccc([N+](=O)[O-])cc2)cc1`, the inhibition is reported as inactive: 3.04%. `O=C(OC1CN2CCC1CC2)c1cccc(Cl)c1` (configuration not stated) was tested, and the inhibition was inactive: 18.2%. In the case of `CC1CCC(C(C)C)C(OP(=O)(Nc2ccccn2)c2ccccc2)C1` (configuration not stated), the inhibition is reported as inactive: 9.27%. For `Cc1ccc(C(=O)OC2CN3CCC2CC3)cc1` (configuration not stated), the inhibition was inactive: 8.3%. `Cc1nn(-c2ccccc2)c2c1P(=O)(N1CCOCC1)N(C)C(c1ccccc1)=N2` (configuration not stated) was tested, and the inhibition was inactive: -3.82%. In the case of `O=C(/C=C/c1ccccc1)OC1CN2CCC1CC2` (configuration not stated), the inhibition is reported as inactive: -2.34%. For `CN(C)C1(CNC(=O)c2ccc(S(C)(=O)=O)cc2)CCCCC1`, the inhibition was inactive: 1.84%. `O=P1(Nc2ncccn2)COc2ccccc2OC1` was tested, and the inhibition was inactive: 13.3%. With `Cc1ccc(OCC(=O)OC2CN3CCC2CC3)cc1` (configuration not stated) the inhibition was inactive: -1.09%. In the case of `O=[As](O)(c1cccs1)c1cccs1`, the inhibition is reported as inactive: -2.36%. `O=P1(Nc2ccc(Br)cn2)COc2ccccc2OC1` was tested, and the inhibition was inactive: -15.5%. `NS(=O)(=O)c1cccc(NC(=O)COC(=O)C(O)(c2ccccc2)c2ccccc2)c1` was tested, and the inhibition was inactive: 3.82%. For `Nc1cccc([As](=O)(O)c2ccccc2)c1`, the inhibition was inactive: 9.91%. With `CCOP(=O)(Nc1ccc(C)cn1)OCC` the inhibition was inactive: -3.58%. For `CN(CCCl)Cc1cc(Cl)c(NC2=NCCN2)c(Cl)c1`, the inhibition was inactive: -1.07%. For `CCOP(=O)(NC(=NC(C)c1ccccc1)NC(C)c1ccccc1)OCC` (configuration not stated), the inhibition was inactive: -18.5%. `O=P1(Nc2ccccn2)COc2ccccc2OC1` was tested, and the inhibition was inactive: -7.67%. `CCC1=CC2Cc3nc4ccc(Cl)cc4c(N)c3C(C1)C2` (configuration not stated) was tested, and the inhibition was inactive: 3.17%. In the case of `CC(C)(C)C(=O)NC(Sc1ncccn1)C(Cl)(Cl)Cl` (configuration not stated), the inhibition is reported as inactive: -7.81%. In the case of `Clc1n[nH]nc1-c1nn[nH][15n]1`, the inhibition is reported as inactive: 4.9%. `COc1ccccc1CNC(=O)COC(=O)C(O)(c1ccccc1)c1ccccc1` was tested, and the inhibition was inactive: 6.38%. For `CC1(CBr)Cn2c(nc3ccccc3c2=O)S1` (configuration not stated), the inhibition was inactive: 2.79%. `CC(C)/C=N\N=C(\N)N[N+](=O)[O-]` was tested, and the inhibition was inactive: -12.9%. For `CN(C(=O)Cc1ccc(Cl)c(Cl)c1)[C@@H]1CCCC[C@H]1N1CCCC1`, the inhibition was inactive: 13.1%. In the case of `CS(=O)(=O)c1ccc(Cl)c(NC(=O)COC(=O)C(O)(c2ccccc2)c2ccccc2)c1`, the inhibition is reported as inactive: -10.5%. `O=[As](O)(O)c1cccnc1` was tested, and the inhibition was inactive: 4.88%. With `COc1cc(C(=O)NCC2(N3CCOCC3)CCCCC2)cc(Cl)c1OC(C)C` the inhibition was inactive: 1.55%. In the case of `O=C(OC1CN2CCC1CC2)c1ccc(Cl)cc1` (configuration not stated), the inhibition is reported as inactive: -3.78%. For `Cc1cccc(OCC(=O)OC2CN3CCC2CC3)c1` (configuration not stated), the inhibition was inactive: -8.02%. For `O=[As](O)(c1cccc(O)c1)c1cccc(O)c1`, the inhibition was inactive: 4.53%. With `CCCOP(=S)(Nc1nc(N)cc(=O)[nH]1)OCCC` the inhibition was inactive: 1.54%. With `Cc1ccc(NCCc2c([N+](=O)[O-])cc([N+](=O)[O-])cc2[N+](=O)[O-])cc1` the inhibition was inactive: -0.13%.
